# Results of single-concentration screens

Source: ChEMBL document CHEMBL3988442, “University of Dundee, Small-Polar-MMV Screening Library” (2021).

The filed quantity is “Percent Effect” (%). The controls that fix the scale are not given in the record; negative values are as filed. This is part of a subset picked to be rich in strong results.

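Growth of Mycobacterium tuberculosis over 4 days (cholesterol / DPPC medium with tyloxapol); the read-out is not stated. Compounds at 500 µM. Direction is inferred from retests: higher values go with more growth inhibition. About 18,000 compounds were tested under these conditions; 5% (about 900) showed 50% or more at least once.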

SMILES	Percent Effect
CCn1ncnc1C(C)NC(=O)CN1CCCC1 (centres undefined)	-5.329
CCN(CC)c1ccc(NC(=O)N(C)C)cn1	-9.388
COCCCNCc1cccc(OC)c1OC	10.76
COc1cccc(C(CO)Nc2ncccc2C#N)c1 (centres undefined)	6.022
CCn1c(SCC(N)=O)nnc1-c1cccnc1	-4.544
N[C@@H]1C[C@H]1C(F)(F)F	3.097
CN(CC(F)(F)F)C(=O)CN1CCC[C@H]1CO	-19.65
Cc1ccccc1CSCC(=O)N[C@@H]1CCNC[C@H]1O	-5.225
CC[C@@H](O)CN1CCN(c2cc(OC)ccn2)CC1	20.46
CC(C(=O)Nc1ccc2c(c1)CCC2)S(C)(=O)=O (centres undefined)	4.197
COc1ccc2c(c1)CCN2C(=O)[C@@H](N)CC(C)C	4.562
CC(C)CC(=O)Nc1ccc2[nH]c(=O)c(=O)[nH]c2c1	1.674
CN(C)c1cc(C(=O)Nc2ccccc2F)ccn1	71.15
NC(=O)CSc1nc(Cc2cccs2)n[nH]1	-9.272
COc1cc(NCc2cc[nH]n2)cc(OC)c1	4.196
CCOC(=O)C1CCCN(C(=O)c2onc(C)c2Cl)C1 (centres undefined)	72.82
CC(C)Cn1ccnc1CNc1ncccc1F	55.12
CC(=O)N1N=C(c2ccccn2)CC1c1ccccc1 (centres undefined)	-1.725
Cc1cc2cc(C(=O)NCCOC(N)=O)oc2cc1C	-1.072
COc1ccnc(NCc2ccco2)n1	15.08
CC(C)C(N)c1nc(-c2ccncc2)no1 (centres undefined)	13.33
Cc1nc(Cn2cc(Br)cn2)no1	16.62
CC1CN(C)CCN1CC(=O)NCc1cccs1 (centres undefined)	8.815
Clc1cc2c(c(CN3CCNCC3)c1)OCC2	4.568
CC(NC(=O)Cn1ccc(=O)n(C)c1=O)c1cccs1 (centres undefined)	11.37
CC(C)CC(O)C1CCN(Cc2cccnc2N)CC1 (centres undefined)	1.922
OCC1(Cc2ccc(F)cc2)CCNC1 (centres undefined)	-8.381
N#CCc1c[nH]c2ccc(C(N)=O)cc12	-11.63
CC(C)(C)C(CCO)NC(=O)c1ccsc1 (centres undefined)	-7.688
Cc1ccnc(N2CCOCC2CCO)n1 (centres undefined)	-9.647
CC(c1cccnc1)N(C)C(=O)c1nccn1C (centres undefined)	-0.7102
CCC(CO)NC(=O)c1ccc(F)cc1C(F)(F)F (centres undefined)	-0.6914
CCCNC(=O)c1[nH]cnc1C(=O)NC(C)C	12.14
CCS(=O)(=O)N1CCC(C(=O)NCCN(C)C)CC1	5.191
CC(C)N(CC(N)=O)CC(=O)N(C1CCCC1)C1CC1	-11.53
Cc1nn(CC(=O)N(C)C)c(=O)c2ccccc12	53.67
CS(=O)(=O)N(CC(N)=O)c1cc(Cl)cc(Cl)c1	-13.89
Cc1ccoc1C(=O)NCc1ccnc(N(C)C)c1	15.96
COc1ccccc1N(C)C(=O)Cn1cnnn1	-1.938
CN1CCCN(C(=O)c2csc3c2CCCC3)CC1	18.47
COCCN(C)CCNC(=O)c1cc2ccccc2[nH]1	66.79
COc1ccc(CCNC(C)=O)c(F)c1	-7.276
Cc1n[nH]cc1CNC(=O)C(C)N(C)CC(F)(F)F (centres undefined)	-0.5327
COC(C)C(=O)NCCN(C)C(C)C (centres undefined)	-2.653
COc1ncc(C)cc1NC(=O)CCc1cccnc1	-8.329
O=C(CN1CCNCC1)c1ccco1	65.05
COc1ccc(OC)c(C(=O)Cn2cnc(C#N)n2)c1	-1.135
N#Cc1cccnc1N[C@@H]1CCOC[C@H]1OCC1CC1	-3.846
CCS(=O)(=O)N1CCC2(CC1)OCCO2	12.37
CCc1cc(C(=O)NCCS(=O)(=O)N(C)C)cs1	34.92
Cc1nn(C)c(C)c1NC(=O)NCC(O)c1ccco1 (centres undefined)	3.672
COc1cccc(NC(=O)CN(CC(N)=O)C(C)C)c1	3.833
Cc1cnn(CCNCc2nccn2C)c1	70.25
Cc1cccc(N(C)CC(O)CN2CCOCC2)n1 (centres undefined)	1.406
CCOc1cc(C(=O)NCCCOC(C)C)ccn1	72.62
Cc1cc(C)c2nc(CN3CCC(N)C3)cc(O)c2c1 (centres undefined)	7.955
NCCc1nc(-c2cccc(Cl)c2)no1	72.04
CCOc1cccc(CCNC(=O)N(C)C(C)C)n1	18.07
O=C1C=CC(=O)N1c1ccccc1OC(F)F	114.3
CCCN(CC(=O)NC)C(=O)c1ccc(C)[nH]c1=O	4.377
CC(C)(C)OC(=O)NC1CC2(CNC2)C1	61.53
Cc1cccc(=O)n1CCCNC(=O)c1cnco1	-17.74
CN(C(=O)C(N)CCS(C)(=O)=O)C1CCOCC1 (centres undefined)	0.4131
Cn1cc(C2CCCN2)cn1 (centres undefined)	3.947
COCc1cccc(C(=O)NC(CO)c2ccsc2)c1 (centres undefined)	-1.321
CCC(C)(CCO)NC(=O)c1ccncc1Cl (centres undefined)	-9.74
COc1ccc(CC2CCN2)cc1 (centres undefined)	63.73
O=C(CC1OCCc2ccccc21)N1CCSC1 (centres undefined)	22.72
O=C(NC1CCCCC1)C1CCCNC1 (centres undefined)	11.04
O=C(c1cnsn1)N1CCN(Cc2ccc(Cl)s2)CC1	-18.23
CN(CCN)C(C1CC1)C1CC1	3.86
O=C(NCc1cccnc1)NC1CCCC1	0.2058
CN(C(=O)CC(N)c1ccccc1)c1cccc(F)c1 (centres undefined)	7.259
O=C1COC[C@H]2CNCC[C@H]2N1Cc1ccccc1	21.96
Nc1n[nH]c(SCc2ccc3c(c2)OCCO3)n1	53.96
CCCOc1ccc(CN2CCOC(CN)C2)cc1 (centres undefined)	-4.272
CC(=O)N1CCC(OCCOc2ccccc2)CC1	27.67
CNc1nnc(-c2ccccc2)s1	32.27
CCc1ncnc(N(CC)CC(N)=O)c1F	5.287

Some entries from above, unchanged:

| SMILES | Percent Effect |
|---|---|
| `COC(C)C(=O)NCCN(C)C(C)C` (centres undefined) | -2.653 |
| `CC(=O)N1N=C(c2ccccn2)CC1c1ccccc1` (centres undefined) | -1.725 |
| `Cc1nn(C)c(C)c1NC(=O)NCC(O)c1ccco1` (centres undefined) | 3.672 |
| `CCOc1cccc(CCNC(=O)N(C)C(C)C)n1` | 18.07 |
| `CCCOc1ccc(CN2CCOC(CN)C2)cc1` (centres undefined) | -4.272 |
| `CN(C(=O)C(N)CCS(C)(=O)=O)C1CCOCC1` (centres undefined) | 0.4131 |
| `Clc1cc2c(c(CN3CCNCC3)c1)OCC2` | 4.568 |
| `COc1ccnc(NCc2ccco2)n1` | 15.08 |